Results of unrelated studies side by side (data: NIAID ChemDB).

Common to all: target-level tests; agent: HIV-1; protein: Reverse transcriptase; read-out: IC50

ICn: concentration for n% inhibition.

CCN1c2ncc(CCOc3cccc4c3CS(=O)(=O)N4CC(=O)OC(C)(C)C)cc2-c2nccn2-c2c(C)ccnc21 ; read by: nucleotide incorporation / radiometric ; result: <0.05 µM
CCN1c2ncc(CCOc3ccc(-c4cc[n+]([O-])cc4)cc3)cc2C(=O)N(C)c2cccnc21 ; strain or isolate: IIIB ; read by: nucleotide incorporation / radiometric ; result: <0.05 µM
O=C(O)C[C@H]1C(=O)O[C@H]2[C@H](OC(=O)c3cc(O)c(O)c(O)c3)[C@@H](OC(=O)c3cc(O)c(O)c4c3[C@H]1[C@H](O)C(=O)O4)[C@H](OC(=O)c1cc(O)c(O)c(O)c1)O[C@@H]2COC(=O)c1cc(O)c(O)c(O)c1 ; read by: nucleotide incorporation ; result: <20 µg/mL
CCN1c2ncc(CCOc3cccc4c3n(C)c(=O)n4C)cc2C(=O)N(C)c2cccnc21 ; strain or isolate: IIIB ; mutations: RT-K103N Y181C ; read by: nucleotide incorporation / radiometric ; result: >0.1 µM
O=C(CCc1ccc(O)c2c1[C@H](C(=O)O[C@H](Cc1ccc(O)c(O)c1)C(=O)[O-])[C@@H](c1ccc(O)c(O)c1)O2)O[C@H](Cc1ccc(O)c(O)c1)C(=O)[O-].[Mg+2] ; read by: nucleotide incorporation ; result: >20 µg/mL
CCN1c2ncc(CCOc3ccc(-c4ccc(CC(=O)O)cc4)cc3C)cc2-c2nccn2-c2cccnc21 ; read by: nucleotide incorporation / radiometric ; result: <0.05 µM
CCN1c2ncc(CCOc3cccc4c3CCNC4=O)cc2C(=O)Nc2c(C)ccnc21 ; strain or isolate: IIIB ; mutations: RT-K103N Y181C ; read by: nucleotide incorporation / radiometric ; result: >0.1 µM
CCN1c2ncc(CCOc3ccc(NC(=O)C4CC4C(=O)O)cc3C)cc2C(=O)N(C)c2cccnc21 ; strain or isolate: IIIB ; read by: nucleotide incorporation / radiometric ; result: <0.05 µM
CC(C)=CCN1Cc2cccc3[nH]c(=S)n(c23)C[C@@H]1C ; read by: nucleotide incorporation ; result: 0.54 µM
O=C(O[C@@H]1O[C@H](CO)[C@@H](O)[C@H](O)[C@H]1O)c1cc(O)c(O)c(O)c1 ; read by: nucleotide incorporation ; result: >20 µg/mL
CCN1c2ncc(CCOc3cccc4c3CC(=O)N4C)cc2C(=O)N(C)c2cccnc21 ; strain or isolate: IIIB ; read by: nucleotide incorporation / radiometric ; result: 0.05–0.1 µM
CCN1c2ncc(CCOc3ccc(-c4ccc(F)c(CC(=O)O)c4)cc3C)cc2C(=O)N(C)c2cccnc21 ; strain or isolate: IIIB ; mutations: RT-K103N Y181C ; read by: nucleotide incorporation / radiometric ; result: <0.05 µM
Cc1ccnc2c1NC(=O)c1cc(CCOc3cccc4c3CNC(=O)N4)cnc1N2C1CC1 ; strain or isolate: IIIB ; mutations: RT-K103N Y181C ; read by: nucleotide incorporation / radiometric ; result: >0.1 µM
CCN1c2ncc(CCOc3ccc(C(=O)O)cc3C)cc2-c2nccn2-c2cccnc21 ; read by: nucleotide incorporation / radiometric ; result: <0.05 µM
CCN1c2ncc(CCOc3ccc4on(C(C)(C)C)c(=O)c4c3)cc2C(=O)Nc2c(C)cc(F)nc21 ; strain or isolate: IIIB ; mutations: RT-K103N Y181C ; read by: nucleotide incorporation / radiometric ; result: >0.1 µM
CCN1c2ncc(CCOc3cccc4c3CCS(=O)(=O)N4)cc2-c2ncc(C)n2-c2cccnc21 ; mutations: RT-K103N Y181C ; read by: nucleotide incorporation / radiometric ; result: 0.05–0.1 µM
O=C1OC2C(O)OC(CO)C(O)C2OC(=O)c2cc(O)c(O)c(O)c2-c2c1cc(O)c(O)c2O ; read by: nucleotide incorporation ; result: >20 µg/mL
CCN1c2ncc(CCOc3cccc4c3C=CS(=O)(=O)N4C)cc2-c2ncc(C)n2-c2cccnc21 ; read by: nucleotide incorporation / radiometric ; result: <0.05 µM
CCN1c2ncc(CCOc3cccc4c3CNC4=O)cc2C(=O)Nc2c(C)ccnc21 ; strain or isolate: IIIB ; read by: nucleotide incorporation / radiometric ; result: <0.05 µM
O=C(O)C1=C[C@@H](OC(=O)c2cc(O)c(O)c(O)c2)[C@@H](OC(=O)c2cc(O)c(O)c(O)c2)[C@H](OC(=O)c2cc(O)c(O)c(O)c2)C1 ; read by: nucleotide incorporation ; result: >20 µg/mL
CCN1c2ncc(CCOc3cccc4c3COC(=O)N4CC(=O)O)cc2C(=O)N(C)c2cccnc21 ; strain or isolate: IIIB ; mutations: RT-K103N Y181C ; read by: nucleotide incorporation / radiometric ; result: >0.1 µM
O=C(O)C1=C[C@@H](OC(=O)c2cc(O)c(O)c(O)c2)[C@@H](O)[C@H](OC(=O)c2cc(O)c(O)c(O)c2)C1 ; read by: nucleotide incorporation ; result: <20 µg/mL
CCN1c2ncc(CCOc3cccc4c3CNC4=O)cc2C(=O)N(C)c2cccnc21 ; strain or isolate: IIIB ; mutations: RT-K103N Y181C ; read by: nucleotide incorporation / radiometric ; result: >0.1 µM
CCN1c2ncc(CCOc3cccc4c3COC(=O)N4)cc2-c2ncc(C)n2-c2cccnc21 ; read by: nucleotide incorporation / radiometric ; result: <0.05 µM
CCN1c2ncc(CCOc3ccc(-c4cc(C(=O)O)c[n+]([O-])c4)cc3C)cc2C(=O)N(C)c2cccnc21 ; strain or isolate: IIIB ; mutations: RT-K103N Y181C ; read by: nucleotide incorporation / radiometric ; result: <0.05 µM
O=C1OC2C(COC(=O)c3cc(O)c(O)c(O)c3)OC(OC(=O)c3cc(O)c(O)c(O)c3)C(OC(=O)c3cc(O)c(O)c4c3[C@@H]3C1=CC(=O)C(O)(O)C3(O)O4)C2OC(=O)c1cc(O)c(O)c(O)c1 ; read by: nucleotide incorporation ; result: >20 µg/mL

The last 2 rows once more:

CCN1c2ncc(CCOc3ccc(-c4cc(C(=O)O)c[n+]([O-])c4)cc3C)cc2C(=O)N(C)c2cccnc21 ; strain or isolate: IIIB ; mutations: RT-K103N Y181C ; read by: nucleotide incorporation / radiometric ; result: <0.05 µM
O=C1OC2C(COC(=O)c3cc(O)c(O)c(O)c3)OC(OC(=O)c3cc(O)c(O)c(O)c3)C(OC(=O)c3cc(O)c(O)c4c3[C@@H]3C1=CC(=O)C(O)(O)C3(O)O4)C2OC(=O)c1cc(O)c(O)c(O)c1 ; read by: nucleotide incorporation ; result: >20 µg/mL

a–b is a range or a potency band. Lines come from different laboratories, so protocols vary.